{
  "source": "ChEMBL document CHEMBL1773071",
  "about": "“Development of tricyclic hydroxy-1H-pyrrolopyridine-trione containing HIV-1 integrase inhibitors” (Bioorg Med Chem Lett, 2011)",
  "key": {"[1]": {"tested_on": "Human immunodeficiency virus 1", "test": "Resistant fold, ratio of IC50 for HIV1 integrase G140S/Q148H mutant strand transfer activity to IC50 for wild type HIV1 integrase strand transfer activity in presence of magnesium"}, "[2]": {"tested_on": "Human immunodeficiency virus 1", "test": "Resistant fold, ratio of IC50 for HIV1 integrase Y143R mutant strand transfer activity to IC50 for wild type HIV1 integrase strand transfer activity in presence of magnesium"}, "[3]": {"tested_on": "Human immunodeficiency virus 1", "test": "Resistant fold, ratio of IC50 for HIV1 integrase N155H mutant strand transfer activity to IC50 for wild type HIV1 integrase strand transfer activity in presence of magnesium"}},
  "data": [
    {"compound": "O=C1c2c(c3n(c(=O)c2O)CCCC3)C(=O)N1Cc1ccc(F)c(Cl)c1", "values": [
      {"measurement": "Ratio IC50", "setting": "[1]", "value": 6},
      {"measurement": "Ratio IC50", "setting": "[2]", "value": 2},
      {"measurement": "Ratio IC50", "setting": "[3]", "value": 3}
    ]}
  ]
}
